Anti-infective test results gathered from many reports (values: NIAID ChemDB through PubChem).

Common to all: whole-cell or culture tests; organism: Mycobacterium tuberculosis

An empty or dashed field is not shown. A number after MIC or MFC names an inhibition level or a share of isolates. Percent inhibition refers to the dose given; in toxicity tests it is the harm to the cells. ECn is the concentration giving n% inhibition of infection, replication or growth. MIC bound: limit read from a one-dose screen. Conditions beyond the fields shown may differ between rows.

| SMILES | cells | endpoint | conditions | strain or isolate | tested at | method | value |
|---|---|---|---|---|---|---|---|
| NNC(=O)Cc1c[nH]c2ccccc12 |  | inhibition |  | H37Rv | 12.5 µg/mL | BACTEC | 4% |
| CCCCCCCCS(=O)CC(=O)OCc1ccccc1 |  | MIC |  | H37Rv |  |  | >25 µg/mL |
| Cc1nc2c(C)cccn2c1C(=O)NNC(=S)Nc1ccc(Cl)cc1 |  | MIC |  | H37Rv |  |  | >12.5 µM |
| Cn1cc(NC(=O)c2cc(NC(=O)CCCCCCCCCCC(=O)Nc3cc(C(=O)Nc4cc(C(=O)NCCC(N)=[NH2+])n(C)c4)n(C)c3)cn2C)cc1C(=O)NCCC(N)=[NH2+] | VERO | MIC |  | H37Rv |  | BACTEC | 3.13 µg/mL |
| CC(=O)/C(N=Nc1ccc(C(=O)N/N=C/c2ccc([N+](=O)[O-])cc2)cc1)=C(\C)O |  | MIC |  | H37Rv |  |  | >12.5 µg/mL |
| Nc1nc(-c2ccccc2)c(-c2ccccc2)nc1C(=O)NCc1ccccc1 |  | MIC bound |  | H37Rv |  | BACTEC | >12.5 µg/mL |
| COc1cc2c(c3oc(=O)c4c(c13)CCC4=O)C1C=COC1O2 |  | MIC90 |  |  |  |  | 64 µg/mL |
| CCCCCCCCCCCCNC(=O)c1ccc[n+](Cc2ccc(Cl)c(Cl)c2)c1.[Cl-] |  | inhibition |  | H37Rv | 12.5 µg/mL | BACTEC | 74% |
| Oc1c(Cl)cc(Cl)cc1Sc1cc(Cl)cc(Cl)c1O |  | MIC90 |  |  |  |  | 128 µg/mL |
| CC(=O)Nc1ccc(OCC(=O)NN2C(=O)C(C)SC2c2ccc(N(C)C)cc2)cc1 |  | EC50 |  | H37Rv |  |  | >12.5 µg/mL |
| CCCCCC(C)O/N=C/c1c2c(O)c3c(O)c(C)c4c(c3c1O)C(=O)[C@@](C)(O/C=C/[C@H](OC)[C@@H](C)[C@@H](OC(C)=O)[C@H](C)[C@H](O)[C@H](C)[C@@H](O)[C@@H](C)/C=C/C=C(/C)C(=O)N2)O4 |  | MIC |  | H37Rv |  |  | 2 µg/mL |
| CCNC(=O)c1ccc2c(c1NCC)C(=O)c1ccccc1C2=O |  | inhibition |  | H37Rv | 12.5 µg/mL | BACTEC | 1% |
| CC(=O)Nc1ccc(OCC(=O)NN2C(=O)C(C)SC2c2ccc(Cl)cc2Cl)cc1 |  | EC50 |  | H37Rv |  |  | >12.5 µg/mL |
| CCCCCCCCS(=O)CC(=O)OC |  | MIC |  | H37Rv |  |  | >25 µg/mL |
| C=C1CC[C@H]2[C@@H]3C(C(C)C)=CC[C@]3(C)C(=O)C[C@]2(C)C[C@@H]1O |  | inhibition |  | H37Rv | 6.25 µg/mL |  | 0% |
| CC(C)=CCC/C(C)=C/CC/C(C)=C/CC/C(C)=C/CO |  | inhibition |  | H37Rv | 6.25 µg/mL | resazurin | 96% |
| CCCCCCCCCCCCCCC(=O)O/N=C1\c2ccccc2-c2c1c(N1CCN(c3ccccn3)CC1)nc1ccc(Br)cc21 |  | MIC90 |  | H37Rv |  | resazurin | >6.25 µg/mL |
| CC1=C2C(=CO[C@H](C)[C@H]2C)C(=O)C(C(=O)O)=C1O |  | inhibition |  | M.AV | 400 µg/mL |  | 91% |
| COC1OCC(OS(=O)(=O)c2ccc(C)cc2)C2OC(C)(C)OC12 |  | inhibition |  | H37Rv | 12.5 µg/mL | BACTEC | 0% |
| CCCC(=O)O/N=C1\c2ccccc2-c2c1c(N1CCN(c3ccccn3)CC1)nc1ccc(Br)cc21 |  | MIC90 |  | H37Rv |  | resazurin | >6.25 µg/mL |
| Cc1ccc(NC(=O)c2ccco2)cc1Cl |  | inhibition |  | H37Rv | 12.5 µg/mL | BACTEC | 94% |
| CO[C@H]1/C=C/O[C@@]2(C)Oc3c(C)c(O)c4c(O)c(c(/C=N/OCCOc5ccccc5)c(O)c4c3C2=O)NC(=O)/C(C)=C\C=C\[C@H](C)[C@H](O)[C@@H](C)[C@@H](O)[C@@H](C)[C@H](OC(C)=O)[C@@H]1C |  | MIC |  | H37Rv |  |  | 0.2 µg/mL |
| CC(=O)Nc1ccc(OCC(=O)NN2C(=O)C(C)SC2c2ccccc2Cl)cc1 |  | inhibition |  | H37Rv | 12.5 µg/mL |  | 0% |
| CC(=O)C1(OC(=O)/C=C/c2ccc(O)c(O)c2)C[C@@H](O)C(OC(=O)/C=C/c2ccc(O)c(O)c2)[C@H](O)C1 |  | inhibition |  | H37Rv | 12.5 µg/mL | BACTEC | 0% |
| CO[C@H]1/C=C/O[C@@]2(C)Oc3c(C)c(O)c4c(O)c(c(/C=N/OCCO)c(O)c4c3C2=O)NC(=O)/C(C)=C\C=C\[C@H](C)[C@H](O)[C@@H](C)[C@@H](O)[C@@H](C)[C@H](OC(C)=O)[C@@H]1C |  | MIC |  | H37Rv |  |  | 0.1 µg/mL |
| O=c1c2cccc3cccc(c4oc5c6cccc7cccc(c(=O)c5c14)c76)c32 |  | MIC bound |  | H37Rv |  | BACTEC | >12.5 µg/mL |
| CC(C)C1C=C2C(C(=O)C1=O)[C@@]1(C)CCCC(C)(C)[C@@H]1C[C@@H]2O |  | MIC |  | H37Rv |  |  | <12.5 µg/mL |
| C=CC(C)(CCC=C(C)C)OC(C)=O |  | inhibition |  | H37Rv | 6.25 µg/mL | resazurin | 22% |
| CCCCCCCCCCSCC(N)=O |  | MIC |  | H37Rv |  |  | >25 µg/mL |
| CC(=O)Nc1ccc(OCC(=O)NN2C(=O)CSC2c2ccc(O)cc2)cc1 |  | EC50 |  | H37Rv |  |  | >12.5 µg/mL |
| CCN(CC)C(C(=O)NN)c1ccccc1 |  | inhibition |  | H37Rv | 12.5 µg/mL | BACTEC | -1% |
| CCCCCCC(=O)O/N=C1\c2ccccc2-c2c1c(N1CCN(c3ccccn3)CC1)nc1ccc(Br)cc21 |  | MIC90 |  | H37Rv |  | resazurin | >6.25 µg/mL |
| COc1ccc(C2SC(C)C(=O)N2NC(=O)COc2ccc(NC(C)=O)cc2)cc1OC |  | inhibition |  | H37Rv | 12.5 µg/mL |  | 0% |
| O=c1cc(C(F)(F)F)[nH]c2c3ncccc3c3nc4ccccc4nc3c12 |  | MIC bound |  | H37Rv |  | BACTEC | >12.5 µg/mL |
| Cc1onc(-c2ccccc2Cl)c1C(=O)N[C@@H]1C(=O)N2[C@@H]1SC(C)(C)[C@@H]2C(=O)O |  | inhibition | 21 d | Gordon | 2.5 µg/mL | colony count | 100% |
| C=CC(C)(CC/C=C(/C)CCC=C(C)C)OC(C)=O |  | inhibition |  | H37Rv | 6.25 µg/mL | resazurin | 15% |
| O=C(Cc1cccs1)N/N=C/c1ccc[nH]1 |  | MIC |  | H37Rv (ATCC 27294) |  | resazurin | >100 µg/mL |
| CO[C@H]1/C=C/O[C@@]2(C)Oc3c(C)c(O)c4c(O)c(c(/C=N/OCCCCCCO)c(O)c4c3C2=O)NC(=O)/C(C)=C\C=C\[C@H](C)[C@H](O)[C@@H](C)[C@@H](O)[C@@H](C)[C@H](OC(C)=O)[C@@H]1C |  | MIC |  | H37Rv |  |  | 0.5 µg/mL |
| CC1COc2c(N3CCN(C)CC3)c(F)cc3c(=O)c(C(=O)O)cn1c23 |  | MIC | clinical isolate | Clinical isolates |  |  | 0.5 µg/mL |
| O=c1c2c3c(sc2nc2n1N=C(c1ccc(Br)cc1)CS2)CCCC3 |  | inhibition |  | H37Rv | 6.25 µg/mL | resazurin | 22% |
| O=C(Cc1cccs1)N/N=C/c1ccccc1O |  | MIC |  | H37Rv (ATCC 27294) |  | resazurin | 404.7 µM |
| Nc1ccc(C(=O)N/N=C/c2ccc(F)cc2)cc1 |  | inhibition |  | H37Rv | 12.5 µg/mL |  | 11% |
| Cc1nc2c(C)cccn2c1C(=O)NNC(=S)Nc1ccccc1 |  | MIC |  | H37Rv |  |  | 12.5 µM |
| N#Cc1ccc(/C=N/NC(=O)Cc2cccs2)cc1 |  | MIC |  | H37Rv (ATCC 27294) |  | resazurin | >100 µg/mL |
| CN(C)c1ccc2nc3ccc(=[N+](C)C)cc-3oc2c1.[Cl-] |  | MIC bound |  | H37Rv |  | BACTEC | >12.5 µg/mL |
| COC(C)CCO/N=C/c1c2c(O)c3c(O)c(C)c4c(c3c1O)C(=O)[C@@](C)(O/C=C/[C@H](OC)[C@@H](C)[C@@H](OC(C)=O)[C@H](C)[C@H](O)[C@H](C)[C@@H](O)[C@@H](C)/C=C/C=C(/C)C(=O)N2)O4 |  | MIC |  | H37Rv |  |  | 0.1 µg/mL |
| CCCCCCCCCCCC(=O)O/N=C1\c2ccccc2-c2c1c(N1CCN(c3ccccn3)CC1)nc1ccc(Br)cc21 |  | MIC90 |  | H37Rv |  | resazurin | >6.25 µg/mL |
| C=CC(C)(O)CCC=C(C)C |  | inhibition |  | H37Rv | 6.25 µg/mL | resazurin | 10% |
| CO[C@H]1/C=C/O[C@@]2(C)Oc3c(C)c(O)c4c(O)c(c(/C=N/N5CCN(C)CC5)c(O)c4c3C2=O)NC(=O)/C(C)=C\C=C\[C@H](C)[C@H](O)[C@@H](C)[C@@H](O)[C@@H](C)[C@H](OC(C)=O)[C@@H]1C |  | MIC90 |  | 22 isolates (rifampicin isoniazid-susceptible) |  |  | ≤0.03 µg/mL |
| CSc1c2c(c(C)c3c1[nH]c1ccccc13)C=NCC2 | VERO | MIC |  | H37Rv |  | resazurin | 1.56 µg/mL |
| CO[C@H]1/C=C/O[C@@]2(C)Oc3c(C)c(O)c4c(O)c(c(/C=N/OCc5ccc(Br)cc5)c(O)c4c3C2=O)NC(=O)/C(C)=C\C=C\[C@H](C)[C@H](O)[C@@H](C)[C@@H](O)[C@@H](C)[C@H](OC(C)=O)[C@@H]1C |  | MIC |  | H37Rv |  |  | 0.5 µg/mL |
| C=C1CCCC(C)(C)[C@@H]1CC/C(C)=C/CC/C(C)=C/COC1CCCCO1 |  | inhibition |  | H37Rv | 6.25 µg/mL | resazurin | 32% |
| COC(=O)C(Cc1ccccc1)NC(=O)C1N2C(=O)C(N)C2SC1(C)C |  | inhibition | 21 d | Gordon | 20 µg/mL | colony count | 62% |
| O=c1[nH]c(=O)c2nc3c([N+](=O)[O-])ccc(-c4cccc5ccccc45)c3nc2[nH]1 |  | inhibition |  | H37Rv | 12.5 µg/mL | BACTEC | 19% |
| CC(C)c1c(O)ccc2c1CCC1C(C)(C)CCC[C@]21C |  | inhibition |  | H37Rv | 12.5 µg/mL |  | 0% |
| CCCCC(CC)O/N=C/c1c2c(O)c3c(O)c(C)c4c(c3c1O)C(=O)[C@@](C)(O/C=C/[C@H](OC)[C@@H](C)[C@@H](OC(C)=O)[C@H](C)[C@H](O)[C@H](C)[C@@H](O)[C@@H](C)/C=C/C=C(/C)C(=O)N2)O4 |  | MIC |  | H37Rv |  |  | 1 µg/mL |
| C=C(Br)CN(CC(=C)Br)NC(C)=O |  | inhibition |  | H37Rv | 12.5 µg/mL | BACTEC | 13% |
| O=C(Cc1cccs1)N/N=C/c1cccc(O)c1O |  | MIC |  | H37Rv (ATCC 27294) |  | resazurin | >100 µg/mL |
| NC(=O)CS(=O)(=O)CCCCCc1ccccc1 |  | MIC |  | H37Rv |  |  | >25 µg/mL |
| COC1CC=C2CCN3CCC4=C(CC(=O)OC4)C23C1 |  | MIC |  | H37Rv |  | BACTEC | ≥128 µg/mL |
| CC(=O)OCC(=O)[C@H]1CC[C@H]2[C@@H]3CCC4=CC(=O)CC[C@]4(C)[C@H]3CC[C@]12C |  | MIC50 |  |  |  |  | 16 µg/mL |
| Nc1ccc(C(=O)N/N=C/c2ccncc2)cc1 |  | MIC |  | H37Rv |  |  | >12.5 µg/mL |
| O=C1OC(CN2CCOCC2)CN1/N=C/c1ccc([N+](=O)[O-])o1 |  | MIC bound |  | H37Rv |  | resazurin | >6.25 µg/mL |
| O=C(Cc1cccs1)N/N=C/c1ccco1 |  | MIC |  | H37Rv (ATCC 27294) |  | resazurin | >100 µg/mL |
| COc1cc2c(cc1OC)-c1cc3ccc(OC)c(OC)c3c[n+]1CC2 |  | MIC50 |  |  |  |  | 64 µg/mL |
| O=c1ssc2ccccc12 |  | MIC bound |  | H37Rv |  | BACTEC | >12.5 µg/mL |
| COc1c(N2CCNC(C)C2)c(F)cc2c(=O)c(C(=O)O)cn(C3CC3)c12 |  | MIC50 |  | 25 strains |  |  | 0.1 µg/mL |
| CO[C@H]1/C=C/O[C@@]2(C)Oc3c(C)c(O)c4c(O)c(c(/C=N/OCCCCCCOc5ccccc5)c(O)c4c3C2=O)NC(=O)/C(C)=C\C=C\[C@H](C)[C@H](O)[C@@H](C)[C@@H](O)[C@@H](C)[C@H](OC(C)=O)[C@@H]1C |  | MIC |  | H37Rv |  |  | 2 µg/mL |
| O=C(Cc1cccs1)N/N=C/c1ccccc1Br |  | MIC |  | H37Rv (ATCC 27294) |  | resazurin | >100 µg/mL |
| COc1cc2c(cc1Oc1ccc(OC)c3c1CC1c4c(cc(OC)c(OC)c4-3)CCN1C)CC1c3c(cc(OC)c(OC)c3-2)CCN1C |  | MIC |  | CS-R |  |  | 12.5 µg/mL |
| CC(C)=CCC/C(C)=C/CC/C(C)=C/CC/C(C)=C/COC1CCCCO1 |  | inhibition |  | H37Rv | 6.25 µg/mL | resazurin | 3% |
| CSCCC(NC(=O)OC(C)(C)C)C(=O)O/N=C1\c2ccccc2-c2c1c(N1CCN(c3ccccn3)CC1)nc1ccc(Br)cc21 |  | MIC90 |  | H37Rv |  | resazurin | >6.25 µg/mL |
| O=C(Cc1cccs1)N/N=C/c1ccccc1F |  | MIC |  | H37Rv (ATCC 27294) |  | resazurin | >100 µg/mL |
| CC[C@H]1OC(=O)[C@H](C)[C@@H](O[C@H]2C[C@@](C)(OC)[C@@H](O)[C@H](C)O2)[C@H](C)[C@@H](O[C@@H]2O[C@H](C)C[C@H](N(C)C)[C@H]2O)[C@](C)(OC)C[C@@H](C)C(=O)[C@H](C)[C@@H](O)[C@]1(C)O |  | MIC90 |  | 11 isolates (MDR) |  |  | >16 µg/mL |

For reference, 4 entries again:

| SMILES | cells | endpoint | conditions | strain or isolate | tested at | method | value |
|---|---|---|---|---|---|---|---|
| COC1CC=C2CCN3CCC4=C(CC(=O)OC4)C23C1 |  | MIC |  | H37Rv |  | BACTEC | ≥128 µg/mL |
| O=c1cc(C(F)(F)F)[nH]c2c3ncccc3c3nc4ccccc4nc3c12 |  | MIC bound |  | H37Rv |  | BACTEC | >12.5 µg/mL |
| C=CC(C)(CC/C=C(/C)CCC=C(C)C)OC(C)=O |  | inhibition |  | H37Rv | 6.25 µg/mL | resazurin | 15% |
| O=C(Cc1cccs1)N/N=C/c1ccccc1Br |  | MIC |  | H37Rv (ATCC 27294) |  | resazurin | >100 µg/mL |